Human monoclonal antibodies against the spike receptor-binding domain (heavy:light variable regions). IC50 against pseudoviruses bearing the spike of naturally observed variants; lower = stronger; >10 µg/ml means not reached at the top dose. No active / inactive call. The stated detection limit is 0.0005 µg/ml; values near or below 0.001 µg/ml lie at the floor of the assay.

First the molecules themselves.
B1: BD55-6080 (protein)
chain 1: QVQVVESGGGVVQPGRSLRLSCAASGFTFNTYGMHWVRQAPGKGLEWVAVISYDGSNKNYGDSVKGRFTISRDNSKNTVYLQMNSLRAEDTAVYYCATPLHDYSGYDLFDYYYGMDVWGQGTTVTVSS
chain 2: QSVLTQPPSASGTPGQRVTISCSGSSSNIGSDYVYWYQQLPGTAPKLLIYRNNHRPSGVPDRFSGSKSGTSASLAISGLRSEDEADYYCAAWDDSLSGWVFGGGTKLTVL
B2: BD55-6087 (protein)
chain 1: EVQLVESGGGLIQPGGSLRLSCAASDFTVGSNDMSWVRQAPGKGLECVSVIQGGDGTHYADSVKGRFTISRDTSKNTLYLQMNNLRDEDSAMYYCASLVAGTFDYWGQGTLVTVSS
chain 2: DIQMTQSPSSLSASVGDRVTITCRASQGISNSLAWYQQRPGKAPKILLYATSRLESGVPSRFSGSGSGTDYTLTISSLQPEDFATYHCQQYHGIPYTFGQGTKLEIK
B3: BD55-6062 (protein)
chain 1: EVQLVESGGGLVQPGGSLRLSCAASGFTFSNHAMHWVRQAPGKGLEYVSSITSDGSGTFYANSVGGRFTISRDNSKKTLYLQMGSLRSEDMAVYYCAREGPEIDVTLDYWGQGTLVTVSS
chain 2: DIQMTQSPSSLSASVGDRVTITCRASQTIGKYLNWYQQKPGKPPKLLISGASNLQSGVPSRFSGGGSGADFTLTISSLQPEDFATYFCQQSYTGPQYTFGQGTKLDIK
B4: BD55-6069 (protein)
chain 1: QVQLVQSGAEVKKPGSSVKVSCKASGGTFTNYVINWVRQAPGQGLEWMGRIIPIFGRANSAQKFQGRVNITADKSTSTAYMELSSLRSEDTAVYFCARVRRTGEYSGYDLTYFALDVWGQGTRVTVSS
chain 2: DIQMTQSPSTLSASVGDRVTITCRASQTISSWLAWYQQKPGKAPKLLIYDASSLESGVPSRFSGSGSGTEFTLTISSLQPDDFATYYCQQYDYFGQGTKLEIK
B5: BD55-6059 (protein)
chain 1: QVQLVQSGSELKKPGASVKVSCKASGYTFFSYGLNWVRQAPGQGLEWMGWIDTSTGNPTYARGSTGRFVFSLDTSVSTAYLEISSLKTEDTAMYYCARMYPPVCYDVLTGDYCHDYYYYMDVWGKGTTVTVSS
chain 2: SSELTQPPSVSVSPGQTARITCSGDALPKKYAYWYQQKSGQAPVLVIYEDDKRPSGIPERFSGSNSGTMATLTISGAQVDDEADFYCSSVDSSGNRGVIFGGGTKLSVL
B6: BD55-6081 (protein)
chain 1: EVQLVESGGGLVKPGGSLRLSCAASGFTFSSSTVNWVRQAPGKGLEWVSSISSSSSYIYYADSVKGRFTISRDNAKNSLFLQLNNLRAEDTAVYYCARLMGSYPMDYYYNPMDVWGQGTTVTVSS
chain 2: DIQLTQSPSSLSASVGDRVTITCRASQSISSYLNWYQQKPGRAPKLLIYAASTLQSGVPSRFSGTGSGTDFTLTISSLQPEDFATYYCQQGFGIPRTFGQGTKLEIK
B7: BD55-1146 (protein)
chain 1: EVQLVEAGGGLAQPGRSLRLSCAASGFAFDDYAMHWVRQAPGKGLEWVSSISWNSGTIDYADFVQGRFTISRDSAKSTLYLQMNSLRAEDTAFYYCAKGRDITRFLFDAFDIWGRGTKVIVSS
chain 2: DIQMTQSPSTLSASVGDRVTITCRASQGISTWLAWYQQKPGKAPKLLIYKASALQTGVPSRFSGGGSGTDFTLTISSLQPDDSATYYCQQYNSYSGYTFGQGTKLEIK
B8: BD55-6074 (protein)
chain 1: QLQLQESGPGLVKPSETLSLTCTVSGGSISSSSYCWAWIRQPPGKGLEWIGSICYSVSTNYNPSLKSRVTISVDTSKNQFSLKLSSVTAADTAVYYCARHSGYDPEFDYWGQGTLVTVSS
chain 2: DIQMTQSPSTLSASVGDRVTITCRASQSISRWLAWYQQKPGKAPKLLIYKASILESGVPSRFSGSGSGTEFTLTISSLQPDDFATYYCQHYNSYPYTFGQGTKLEIK
B9: BD55-6095 (protein)
chain 1: QVHLVQSGAEVKKPGASMKVSCKASGYTFTSYAMHWVRQAPGQRLEWMGWINADTDKTEYSQKFQGRVTITRDTSANTVYMELSSLRSEDTAVYYCATFRDGYNWGPFDYWGQGTLVTVSS
chain 2: DIQMTQSPSTLSASVGDRVTITCRASQNIDSWLAWYQQKPGKAPKLLIYQASTLESGVPSRFSGSGSGTEFTLTISSLQPDDFATYNCQQYKSSPYTFGQGTKLEIK
B10: BD55-6083 (protein)
chain 1: QVQLVQSGAEVKKPGASVKVSCKASGYTFTRNAIHWVRQAPGQRLEWMGWINADNGNTEYSQKFQGRVTITRDTSASTAYMELSSLRSEDTAVYYCARDAGRVYYGSGSYYMEYKEYYFDYWGQGTLVTVSS
chain 2: DIQMTQSPSTLSASVGDGVTITCRASQSITPWLAWYQQKPGKAPKLLIYKASSLESGVPSRFSGSGSGTEFTLTISSLQPDDFATYYCQQYNSSPYTFGQGTKLEIK
B11: BD55-6088 (protein)
chain 1: QVPLVQSGAVVKKPGSSVKVSCKASGDTDTFISYAFSWVRQAPGQGLEWMGRVLPIHSLTNYAQKFQDRVTISADKSTTTVYMELKSLTSDDTAVYYCARRGPARGYSGYDEFDYGLDVWGQGTTVTVSS
chain 2: DIQMTQSPSSLSASVGDRVTITCQASQDVKKYLNWYEQKPGKAPKLLIYDASKLETGVTSRFSGTGSGTVFTFTISSLQPEDIATYFCQQYDSLPLTFGQGTRLDIK
B12: BD55-1162 (protein)
chain 1: QLQLQESGPGLLKPSETLSLNCSVSGGSISSSSYYWGWIRQPPGKGLQWIGHVYYTGITYSNPSLESRLTISVDTSKNQFSLALSSVTAADTAVYYCARRVRYFDYSNSFDVWGHGTTVTVSS
chain 2: QSALTQPASVSGSPGQSVTISCTGTSSDVGTYDLVSWYQHHPGKAPKLVIYEVTKRPSGVSNRFSASKSGNTASLTISGLRAEDEADYYCCANAGSNIMFGGGTKLTVL

The first assay concerns the target SARS-CoV-2 Omicron BA.1 spike pseudovirus. The assay can be described thus: pseudovirus neutralization IC50; higher = weaker neutralization. How it is done: (§1)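 Single-round VSV luciferase pseudovirus mixed with antibody dilutions for 1 h and put on Huh-7 cells for about a day; IC50 from the dose curve.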
Turning to B1, the “pseudovirus neutralization IC50” value is greater than 10 µg/mL.
As to B2, the “pseudovirus neutralization IC50” value is greater than 10 µg/mL.
For the molecule B3, the “pseudovirus neutralization IC50” value was greater than 10 µg/mL.
On the same count and under the same terms, the result for B4 reads greater than 10 µg/mL; that for B5, greater than 10 µg/mL; that for B6, greater than 10 µg/mL.
In the case of B7, the “pseudovirus neutralization IC50” value was greater than 10 µg/mL.
On to B8, for which the “pseudovirus neutralization IC50” value was greater than 10 µg/mL.
As to B9, the “pseudovirus neutralization IC50” value was greater than 10 µg/mL.
Still for that read-out and setting: the result for B10 reads greater than 10 µg/mL; that for B11, greater than 10 µg/mL.
Still for that read-out and setting: the result for B12 reads greater than 10 µg/mL.

The target in another assay is SARS-CoV-2 Omicron BA.2 spike pseudovirus. Described as above. The protocol:
as §1
As to B1, the “pseudovirus neutralization IC50” value was greater than 10 µg/mL.
On the same count and under the same terms, the result for B2 reads greater than 10 µg/mL; that for B3, greater than 10 µg/mL.
Same read-out and setting: the result for B4 reads greater than 10 µg/mL.
Same read-out and setting: the result for B5 reads greater than 10 µg/mL; that for B6, greater than 10 µg/mL; that for B7, greater than 10 µg/mL.
For B8, the “pseudovirus neutralization IC50” value is greater than 10 µg/mL.
The same measure, in the same setting: the result for B9 reads greater than 10 µg/mL; that for B10, greater than 10 µg/mL; that for B11, greater than 10 µg/mL.
With B12, the “pseudovirus neutralization IC50” value is greater than 10 µg/mL.

Another assay has as its target SARS-CoV-2 Omicron BA.2.75 spike pseudovirus. The description is as above. The protocol:
as §1
As to B1, the “pseudovirus neutralization IC50” value was greater than 10 µg/mL.
The same measure, in the same setting: the result for B2 reads greater than 10 µg/mL.
On to B3, for which the “pseudovirus neutralization IC50” value was greater than 10 µg/mL.
Still for that read-out and setting: the result for B4 reads greater than 10 µg/mL.
Same read-out and setting: the result for B5 reads greater than 10 µg/mL.
On the same count and under the same terms, the result for B6 reads greater than 10 µg/mL; that for B7, greater than 10 µg/mL.
In the case of B8, the “pseudovirus neutralization IC50” value is greater than 10 µg/mL.
The same measure, in the same setting: the result for B9 reads greater than 10 µg/mL; that for B10, greater than 10 µg/mL; that for B11, greater than 10 µg/mL.
Consider B12, for which the “pseudovirus neutralization IC50” value was greater than 10 µg/mL.

The target of another assay is SARS-CoV-2 Omicron BA.5 spike pseudovirus. The assay is described as above. How it is done: as §1
As to B1, the “pseudovirus neutralization IC50” value is greater than 10 µg/mL.
The same measure, in the same setting: the result for B2 reads greater than 10 µg/mL; that for B3, greater than 10 µg/mL.
Turning to B4, the “pseudovirus neutralization IC50” value was greater than 10 µg/mL.
On the same count and under the same terms, the result for B5 reads greater than 10 µg/mL; that for B6, greater than 10 µg/mL.
The same measure, in the same setting: the result for B7 reads greater than 10 µg/mL; that for B8, greater than 10 µg/mL; that for B9, greater than 10 µg/mL.
For the molecule B10, the “pseudovirus neutralization IC50” value was greater than 10 µg/mL.
The same measure, in the same setting: the result for B11 reads greater than 10 µg/mL.
As for B12, the “pseudovirus neutralization IC50” value is greater than 10 µg/mL.

The next assay addresses SARS-CoV-2 Omicron BQ.1.1 spike pseudovirus. The description is as above. The protocol: as §1
Turning to B1, the “pseudovirus neutralization IC50” value is greater than 10 µg/mL.
As for B2, the “pseudovirus neutralization IC50” value was greater than 10 µg/mL.
On the same count and under the same terms, the result for B3 reads greater than 10 µg/mL; that for B4, greater than 10 µg/mL.
With B5, the “pseudovirus neutralization IC50” value is greater than 10 µg/mL.
Still for that read-out and setting: the result for B6 reads greater than 10 µg/mL; that for B7, greater than 10 µg/mL.
Same read-out and setting: the result for B8 reads greater than 10 µg/mL.
The same measure, in the same setting: the result for B9 reads greater than 10 µg/mL; that for B10, greater than 10 µg/mL.
Regarding B11, the “pseudovirus neutralization IC50” value was greater than 10 µg/mL.
The same measure, in the same setting: the result for B12 reads greater than 10 µg/mL.

The target of another assay is SARS-CoV-2 Omicron XBB spike pseudovirus. The assay is described as above. The protocol:
as §1
Take B1: the “pseudovirus neutralization IC50” value is greater than 10 µg/mL.
Same read-out and setting: the result for B2 reads greater than 10 µg/mL; that for B3, greater than 10 µg/mL.
Same read-out and setting: the result for B4 reads greater than 10 µg/mL.
As to B5, the “pseudovirus neutralization IC50” value is greater than 10 µg/mL.
Take B6: the “pseudovirus neutralization IC50” value was greater than 10 µg/mL.
The same measure, in the same setting: the result for B7 reads greater than 10 µg/mL; that for B8, greater than 10 µg/mL.
Still for that read-out and setting: the result for B9 reads greater than 10 µg/mL; that for B10, greater than 10 µg/mL; that for B11, greater than 10 µg/mL.
Take B12: the “pseudovirus neutralization IC50” value was greater than 10 µg/mL.

In a further assay the target is SARS-CoV-2 early D614G spike pseudovirus. The assay is described as above. How it is done: as §1
Regarding B1, the “pseudovirus neutralization IC50” value stood at 0.0157 µg/mL.
On to B2, for which the “pseudovirus neutralization IC50” value amounted to 0.44 µg/mL.
The same measure, in the same setting: the result for B3 reads greater than 10 µg/mL.
The same measure, in the same setting: the result for B4 reads 0.0506 µg/mL.
In the case of B5, the “pseudovirus neutralization IC50” value is greater than 10 µg/mL.
Still for that read-out and setting: the result for B6 reads greater than 10 µg/mL; that for B7, 5.52 µg/mL.
Still for that read-out and setting: the result for B8 reads greater than 10 µg/mL.
Consider B9, for which the “pseudovirus neutralization IC50” value turned out to be 1.53 µg/mL.
As to B10, the “pseudovirus neutralization IC50” value was greater than 10 µg/mL.
For the molecule B11, the “pseudovirus neutralization IC50” value amounted to 0.0784 µg/mL.
Same read-out and setting: the result for B12 reads greater than 10 µg/mL.

For the origin of these results see the supplement of paper PMC9931576.
